In publication PMC5518105, “Identification and characterization of the antiplasmodial activity of Hsp90 inhibitors” (Malaria Journal, 2017):

Test system: Primary normal human lung fibroblasts (NHLFs)
Assay: Drug cytotoxicity assay (MTT)
Conditions: NHLF IC50 vs P. falciparum IC50

Structure (SMILES): CCNC(=O)c1noc(-c2cc(C(C)C)c(O)cc2O)c1-c1ccc(CN2CCOCC2)cc1 [NVP-AUY922]
- difference between the parasite and host IC50s: > 130 fold
